Compound potency records, mixed from different reports. Data source: NIAID ChemDB in PubChem.

Common to all: growth or infection tests; species: HIV-1; cell line: CEM + CEM/O; read-out: EC50

An empty or dashed field is not shown. Conditions beyond the fields shown may differ between rows. ECn is the concentration giving n% inhibition of infection, replication or growth.

smiles	strain or isolate	read by	value
COC(=O)CC(OP(=O)(OC[C@@H]1C=C[C@H](n2cc(C)c(=O)[nH]c2=O)O1)OC(CC(=O)OC)c1ccccc1)c1ccccc1	IIIB	cytopathic effect / syncytia	5 µM
COc1cccc2c1OP(=O)(OC[C@H]1O[C@@H](n3cc(C)c(=O)[nH]c3=O)C[C@@H]1N=[N+]=[N-])OC2	-	-	0.009 µM
Cc1cccc2c1O[P@](=O)(OC[C@@H]1C=C[C@H](n3cc(C)c(=O)[nH]c3=O)O1)OC2	-	-	0.057 µM
Cc1cn([C@H]2C=C[C@@H](CO)O2)c(=O)[nH]c1=O	IIIB	cytopathic effect / syncytia	0.33 µM
Cc1ccc2c(c1)COP(=O)(OC[C@H]1O[C@@H](n3cc(C)c(=O)[nH]c3=O)C[C@@H]1N=[N+]=[N-])O2	-	-	0.005 µM
CC(=O)OCOC(=O)CCc1ccc2c(c1)COP(=O)(OC[C@@H]1C=C[C@H](n3cc(C)c(=O)[nH]c3=O)O1)O2	IIIB	syncytia	0.2 µM
CCCCCCCCCCCCCCOCCOP(=O)(O)OC[C@H]1O[C@@H](n2cc(C)c(=O)[nH]c2=O)C[C@@H]1N=[N+]=[N-]	IIIB	syncytia	0.119 µM
Cc1cc(C)c2c(c1)COP(=O)(OC[C@H]1O[C@@H](n3cc(C)c(=O)[nH]c3=O)C[C@@H]1N=[N+]=[N-])O2	-	-	0.007 µM
CCCCCCCCCCCCCCCCOCCOP(=O)(O)OC[C@H]1O[C@@H](n2cc(C)c(=O)[nH]c2=O)C[C@@H]1N=[N+]=[N-]	IIIB	syncytia	0.042 µM
Cc1cn([C@H]2C=C[C@@H](COP(=O)(O[C@H](C)c3ccccc3)O[C@H](C)c3ccccc3)O2)c(=O)[nH]c1=O	IIIB	cytopathic effect / syncytia	113 µM
Cc1cccc2c1OP(=O)(OC[C@H]1O[C@@H](n3cc(C)c(=O)[nH]c3=O)C[C@@H]1N=[N+]=[N-])OC2	-	-	0.006 µM
Cc1cn([C@H]2C=C[C@@H](COP3(=O)OCc4c(ccc5ccccc45)O3)O2)c(=O)[nH]c1=O	IIIB	syncytia	0.08 µM
Cc1cn([C@H]2C=C[C@@H](COP3(=O)OCc4c(Cl)cccc4O3)O2)c(=O)[nH]c1=O	-	-	0.087 µM
Cc1cn([C@H]2C=C[C@@H](COP3(=O)Oc4ccccc4C(C)O3)O2)c(=O)[nH]c1=O	IIIB	cytopathic effect / syncytia	0.22 µM
Cc1cn([C@H]2C=C[C@@H](CO)O2)c(=O)[nH]c1=O	IIIB	syncytia	0.36 µM
CCCCCCCCCCCCOCCOP(=O)(O)OC[C@H]1O[C@@H](n2cc(C)c(=O)[nH]c2=O)C[C@@H]1N=[N+]=[N-]	IIIB	syncytia	0.115 µM
Cc1cccc2c1OP(=O)(OC[C@@H]1C=C[C@H](n3cc(C)c(=O)[nH]c3=O)O1)OC2	IIIB	syncytia	0.073 µM

For reference, 3 entries again:

COC(=O)CC(OP(=O)(OC[C@@H]1C=C[C@H](n2cc(C)c(=O)[nH]c2=O)O1)OC(CC(=O)OC)c1ccccc1)c1ccccc1 ; strain or isolate: IIIB ; read by: cytopathic effect / syncytia ; value: 5 µM
CCCCCCCCCCCCCCCCOCCOP(=O)(O)OC[C@H]1O[C@@H](n2cc(C)c(=O)[nH]c2=O)C[C@@H]1N=[N+]=[N-] ; strain or isolate: IIIB ; read by: syncytia ; value: 0.042 µM
Cc1cn([C@H]2C=C[C@@H](COP3(=O)OCc4c(ccc5ccccc45)O3)O2)c(=O)[nH]c1=O ; strain or isolate: IIIB ; read by: syncytia ; value: 0.08 µM